We go through one compound from patent publication US9587171B2, “Ammonium salts of chelating agents and their use in oil and gas field applications” (AKZO NOBEL CHEMICALS INTERNATIONAL B.V., priority 2010, dated 2017).

This series concerns populations of bacteria which occur naturally in seawater. The series can be described thus: Seawater biodegradation, closed bottle test OECD 306 (1992).

Structures are written as SMILES.

With `N.N.N.O=C(O)CC[C@@H](C(=O)O)N(CC(=O)O)CC(=O)O` [triammonium GLDA, triammonium salt of GLDA], the “start of biodegradation in seawater” value (OECD 306 protocol (1992), FIG. 1) is recorded as 14 days. Further, the “biodegraded in seawater at day 28” value (closed bottle test OECD 306 (1992) modified to permit prolonged measurement, day 28) is 29%.
